# PubChem BioAssay AID624416 (The Scripps Research Institute Molecular Screening Center, 2012)
# Only a part is listed here, and it is no random draw. Some salts or complexes appear as unconnected parts, following the source record. Active and inactive are the calls of the source. Cut-off read from the data, not from the text of the source: active = inhibition above about 8.5%; inactive = the rest.
# Tested on: HIV-1 gp120 / PG9 antibody interaction
# Assay: small molecules engaging PG9 antibody – biochemical, TR-FRET, primary screen (AID 624416)
# Details: TR-FRET gp120-PG9 antibody binding; at 6.7 µM; stronger effect = higher value
row,SMILES,inhibition
1,CP(=O)(Nc1ccccn1)Oc1ccc(Cl)cc1 (centres undefined),inactive: -0.28%
2,O=[N+]([O-])c1cc([N+](=O)[O-])c(O)c([N+](=O)[O-])c1.c1ccc(Oc2ccncc2)cc1,inactive: -1.37%
3,CCOC(=O)c1ccc(NP(C)(=O)Oc2ccc(OC)cc2)cc1 (centres undefined),inactive: -1.13%
4,CCOP(C)(=S)SCC(=O)NC(C)C(=O)O (centres undefined),inactive: 0.3%
5,Cc1cc(C)cc(OP(C)(=O)Nc2ccc(SC(F)(F)F)cc2)c1 (centres undefined),inactive: 0.27%
6,CCc1ccc(OP(C)(=O)N2CCN(c3ccc([N+](=O)[O-])cc3)CC2)cc1 (centres undefined),inactive: -0.71%
7,CP(=O)(NC(=O)Nc1ccccc1)Oc1ccccc1 (centres undefined),inactive: -1.15%
8,CP(=O)(Oc1ccccc1)OC(c1ccccc1)C(F)(F)F (centres undefined),inactive: -0.8%
9,CP(=O)(Nc1ccc(SC(F)(F)F)cc1)Oc1ccc(Cl)cc1 (centres undefined),inactive: 0.15%
10,Cc1cccc(C)c1OP(C)(=O)Nc1ccc(SC(F)(F)F)cc1 (centres undefined),inactive: 0.33%
11,CP(=O)(Nc1ccccc1Br)Oc1ccccc1 (centres undefined),inactive: -0.3%
12,COc1ccccc1OP(C)(=O)Nc1ccccc1 (centres undefined),inactive: -0.29%
13,CP(=S)(Nn1cnnc1)Oc1ccccc1 (centres undefined),inactive: -1.07%
14,Cc1cc(C)cc(OP(C)(N)=O)c1 (centres undefined),inactive: 0.38%
15,COc1ccc(OP(C)(=O)Nc2cccc(F)c2)cc1 (centres undefined),inactive: -1.09%
16,COc1ccccc1OP(C)(=O)Nc1cc(Cl)ccc1C (centres undefined),inactive: -0.48%
17,Cc1ccc(NP(C)(=O)Oc2ccccc2)c(C)c1 (centres undefined),inactive: 0.77%
18,COc1ccccc1OP(C)(=O)Nc1ccc(C)cc1 (centres undefined),inactive: 0.29%
19,CCOC(=O)c1ccc(NP(C)(=O)Oc2ccccc2)cc1 (centres undefined),inactive: -0.53%
20,O=[N+]([O-])c1ccc2c(c1)C=Nc1ccccc1O2,inactive: -3.89%
21,Cc1cccc(C)c1OP(C)(N)=O (centres undefined),inactive: 0.7%
22,CC(C)(C)c1ccc(OP(C)(=O)Nc2ccc(SC(F)(F)F)cc2)cc1 (centres undefined),inactive: 1.9%
23,O=[N+]([O-])c1cc([N+](=O)[O-])c(Nc2cccnc2)c([N+](=O)[O-])c1,inactive: 1.25%
24,COc1ccccc1-c1ccccn1.O=[N+]([O-])c1cc([N+](=O)[O-])c(O)c([N+](=O)[O-])c1,inactive: -1.5%
25,CCN(CC)CCCOC(=O)C(O)(c1ccccc1)c1ccccc1,inactive: -2.51%

row,SMILES,inhibition
1,Cc1ccc(C)c(NP(C)(=O)Oc2ccccc2)c1 (centres undefined),inactive: 0.36%
2,CP(=O)(Nc1cccc(Br)c1)Oc1ccccc1 (centres undefined),inactive: -0.91%
3,Cc1cc(C)cc(OP(C)(=O)Nc2ccccn2)c1 (centres undefined),inactive: -0.56%
4,CCOC(=O)c1ccc(NP(C)(=O)Oc2cc(C)cc(C)c2)cc1 (centres undefined),inactive: -2.46%
5,Cc1cc(C)cc(OP(C)(=O)Nc2ccc(C)cc2C)c1 (centres undefined),inactive: -0.28%
6,COc1ccccc1OP(C)(=O)Nc1cccc(Br)c1 (centres undefined),inactive: 1.46%
7,CC1=NCCc2c1[nH]c1ccccc21.O=[N+]([O-])c1cc([N+](=O)[O-])c(O)c([N+](=O)[O-])c1,inactive: -3.32%
8,O=C(O)c1cccc(Nc2c([N+](=O)[O-])cc([N+](=O)[O-])cc2[N+](=O)[O-])c1,inactive: 0.53%
9,COc1ccc(-c2ccccn2)cc1.O=[N+]([O-])c1cc([N+](=O)[O-])c(O)c([N+](=O)[O-])c1,inactive: -0.12%
10,CP(=O)(Nc1ccc(SC(F)(F)F)cc1)Oc1ccccc1 (centres undefined),inactive: 1.31%
11,CCCOc1ccc(NP(C)(=O)Oc2ccc(Cl)cc2)cc1 (centres undefined),inactive: -0.52%
12,CN1CCCCC1COC(=O)C1(O)c2ccccc2CCc2ccccc21 (centres undefined),inactive: -0.39%
13,COc1ccccc1OP(C)(=O)Nc1c(C)cccc1C (centres undefined),inactive: 0.15%
14,CCOC(=O)C(CC)C1=NC(C)(C)Cc2ccccc21.O=[N+]([O-])c1cc([N+](=O)[O-])c(O)c([N+](=O)[O-])c1 (centres undefined),inactive: -1.17%
15,O=[N+]([O-])c1cc([N+](=O)[O-])c(Nc2nnnn2CCO)c([N+](=O)[O-])c1,inactive: -1.18%
16,Cc1nc2ccc3ccccc3c2s1.O=[N+]([O-])c1cc([N+](=O)[O-])c(O)c([N+](=O)[O-])c1,inactive: -1.14%
17,O=[N+]([O-])c1cc([N+](=O)[O-])c(-c2cnn(-c3ccccc3)c2)c([N+](=O)[O-])c1,inactive: -1.03%
18,CN(Cc1cccnc1)C(=O)COc1ccc(Cl)c(Cl)c1.O=[N+]([O-])c1cc([N+](=O)[O-])c(O)c([N+](=O)[O-])c1,inactive: 0.18%
19,O=[N+]([O-])c1cc([N+](=O)[O-])c(-n2nnc3ccccc32)c([N+](=O)[O-])c1,inactive: -0.63%
20,Cc1ccccc1NP(C)(=O)Nc1ccccc1C,inactive: -0.19%
21,O=[N+]([O-])c1cc([N+](=O)[O-])c(C(F)(F)F)c([N+](=O)[O-])c1O,inactive: -0.97%
22,CP(=O)(Nc1ccc2c(c1)OCCO2)Oc1ccccc1 (centres undefined),inactive: 0.28%
23,CCOP(C)(=S)SCC(=O)NC(C)(CC)C(=O)O (centres undefined),inactive: 0.92%
24,CCOP(=O)(CC)OCC,inactive: -0.81%
25,CP(=O)(Nc1ccc(SC(F)(F)F)cc1)Oc1ccc(F)cc1 (centres undefined),inactive: -1.69%

row,SMILES,inhibition
1,Cc1c(C(c2ccc3c(c2)OCO3)c2c(C)n(C)n(-c3ccccc3)c2=O)c(=O)n(-c2ccccc2)n1C.O=[N+]([O-])c1cc([N+](=O)[O-])c(O)c([N+](=O)[O-])c1,inactive: 0.28%
2,O=[N+]([O-])c1ccc(OP2(=O)COCCO2)cc1 (centres undefined),inactive: -0.39%
3,Cc1cc(-c2cccc3ccccc23)c(C)cn1.O=[N+]([O-])c1cc([N+](=O)[O-])c(O)c([N+](=O)[O-])c1,inactive: -0.81%
4,O=[N+]([O-])c1cc([N+](=O)[O-])c(NCC2CCS(=O)(=O)C2)c([N+](=O)[O-])c1 (centres undefined),inactive: -0.25%
5,CN(C)CCOC(=O)C(O)(c1ccccc1)C1CCCCC1 (centres undefined),inactive: 4.37%
6,COc1ccc(NP(C)(=O)Oc2ccccc2OC)cc1 (centres undefined),inactive: -0.43%
7,COc1ccc(OP(C)(=O)Nc2cccc(Br)c2)cc1 (centres undefined),inactive: -2.17%
8,CP(=O)(Nc1ccccc1)Oc1ccc(F)cc1 (centres undefined),inactive: -1.12%
9,CCCCCOc1ccc(NP(C)(=O)Oc2ccc(Cl)cc2Cl)cc1 (centres undefined),inactive: -1.43%
10,O=[N+]([O-])c1cc([N+](=O)[O-])c(OC2CCCCC2O)c([N+](=O)[O-])c1 (centres undefined),inactive: -0.07%
11,Cc1c([N+](=O)[O-])cc([N+](=O)[O-])c(Br)c1[N+](=O)[O-],inactive: -0.12%
12,CCN(CC)CCCOC(=O)C(O)(c1ccccc1)C1CCCCC1 (centres undefined),inactive: 0.15%
13,CCOC(=O)c1ccc(NP(C)(=O)Oc2ccc(F)cc2)cc1 (centres undefined),inactive: -0.39%
14,COc1ccc(OP(C)(=O)Nc2ccc(SC(F)(F)F)cc2)cc1 (centres undefined),inactive: -1.97%
15,CCN(CC)CCCNc1ccccc1[N+](=O)[O-].O=[N+]([O-])c1cc([N+](=O)[O-])c(O)c([N+](=O)[O-])c1,inactive: -1.06%
16,COc1ccc2c(c1O)-c1c(O)c(OC)cc3c1[C@H](C2)[N+](C)(C)CC3.O=[N+]([O-])c1cc([N+](=O)[O-])c([O-])c([N+](=O)[O-])c1[O-],inactive: -5.92%
17,O=C(OC1CN2CCC1CC2)c1ccc([N+](=O)[O-])cc1 (centres undefined),inactive: -0.47%
18,O=C(OCCN1CCN(CCOCc2ccccc2)CC1)C(O)(c1ccccc1)c1ccccc1,inactive: 0.62%
19,CP(=O)(Nc1ccccc1F)Oc1ccccc1 (centres undefined),inactive: 0.97%
20,CC(C)c1ccc(OP(C)(=O)Nc2ccc(SC(F)(F)F)cc2)cc1 (centres undefined),inactive: -1.27%
21,O=[N+]([O-])c1cc([N+](=O)[O-])c(Nc2ccc(Cl)cc2)c([N+](=O)[O-])c1,inactive: 1.28%
22,COc1ccccc1OP(C)(=O)Nc1ccc(C)cc1C (centres undefined),inactive: -0.02%
23,CP(=O)(Nc1ccccn1)Oc1ccccc1 (centres undefined),inactive: -1.87%
24,CCc1ccc(OP(C)(=O)O)cc1,inactive: -1.55%
25,O=[N+]([O-])c1cc([N+](=O)[O-])c(Nc2ccccn2)c([N+](=O)[O-])c1,inactive: -2.27%

row,SMILES,inhibition
1,Cc1c(NP(C)(=O)Oc2ccc(C(C)C)cc2)c(=O)n(-c2ccccc2)n1C (centres undefined),inactive: -0.58%
2,COc1ccc(OP(C)(=O)Nc2ccccn2)cc1 (centres undefined),inactive: 1.29%
3,CN(C)CCOC(=O)C(O)(c1ccccc1)C1CCCC1 (centres undefined),inactive: 0.39%
4,COc1ccccc1OP(C)(=O)Nc1ccc(Br)cc1 (centres undefined),inactive: 0.78%
5,CP(=O)(OCCOc1ccccc1)OCCOc1ccccc1,inactive: -0.62%
6,CCCCCCCCCCCCCCCC1C[N+](C)(C)CCOP(C)(=O)O1 (centres undefined),inactive: 1.48%
7,CP(=O)(Nc1ccc(Cl)cc1Cl)Oc1ccccc1 (centres undefined),inactive: 0.52%
8,COc1ccccc1OP(C)(=O)Nc1ccc(C)c(C)c1 (centres undefined),inactive: 0.78%
9,COc1ccc(OP(C)(=O)Nc2ccccc2Br)cc1 (centres undefined),inactive: -1.05%
10,Cc1cc(C)cc(OP(C)(=O)Nc2cccc(C(F)(F)F)c2)c1 (centres undefined),inactive: -0.27%
11,O=C1C(O)=C([N+](=O)[O-])C(=O)C(O)=C1[N+](=O)[O-],inactive: -2.31%
12,CCOC(=O)c1ccc(NP(C)(=O)Oc2ccc(Cl)cc2)cc1 (centres undefined),inactive: -2.48%
13,CP(=O)(OC12CC3CC(CC(C3)C1)C2)OC12CC3CC(CC(C3)C1)C2,inactive: 0.57%
14,Nc1ccc2c(ccc3cccnc32)n1.O=[N+]([O-])c1cc([N+](=O)[O-])c(O)c([N+](=O)[O-])c1,inactive: -1.37%
15,CN(C)C(=O)c1c([N+](=O)[O-])cc([N+](=O)[O-])cc1[N+](=O)[O-],inactive: 0.07%
16,CC(C)(C)c1ccc(OP(C)(=O)O)cc1,inactive: -2.77%
17,COc1ccccc1OP(C)(=O)Nc1ccccc1Br (centres undefined),inactive: -0.41%
18,CP(=O)(Nc1ccc(Cl)cc1)Oc1ccc(F)cc1 (centres undefined),inactive: 1.32%
19,O=C(OCCCN1CCCC1)C(O)(c1ccccc1)C1CCCCC1 (centres undefined),inactive: -0.22%
20,COc1ccccc1OP(C)(=O)Nc1c(C)n(C)n(-c2ccccc2)c1=O (centres undefined),inactive: -0.18%
21,CCc1ccc(OP(C)(=O)Nc2cccnc2)cc1 (centres undefined),inactive: -0.77%
22,CP(=O)(Oc1ccccc1)N1CCOC1=O (centres undefined),inactive: -0.3%
23,COc1ccc(OP(C)(=O)Nc2ccc(Br)cc2)cc1 (centres undefined),inactive: -0.99%
24,CCN(CC)CC(O)COC(=O)C(O)(c1ccccc1)C1CCCCC1 (centres undefined),inactive: 3.6%
